Pooled drug test results. Numbers come from NIAID ChemDB, via PubChem.

Shared fields: whole-cell or culture tests; species: Mycobacterium tuberculosis

ECn is the concentration giving n% inhibition of infection, replication or growth. MIC bound comes from a single tested concentration. Conditions beyond the fields shown may differ between rows. Inhibition is in % at the dose shown (toxicity tests: loss of growth or viability). A number after MIC or MFC names an inhibition level or a share of isolates. Blank or dashed fields: not listed here.

smiles,method,strain,conditions,dose,endpoint,mutations,cells,result
CCN(CC)CCCCNc1cc(N)nc(NCCCCN(CC)CC)n1.Cl,-,H37Rv,-,-,MIC,-,-,>100 µg/mL
Clc1nn2ccnc2c2cccnc12,BACTEC,H37Rv,-,12.5 µg/mL,inhibition,-,-,0%
O=[N+]([O-])/C=C/c1ccccc1,-,H37Rv,-,-,MIC,-,-,>100 µg/mL
C[C@H]1COc2c(N3CCN(C)CC3)c(F)cc3c(=O)c(C(=O)O)cn1c23,-,CSU20,-,-,MIC,-,-,≤0.125 µg/mL
Cc1ccc(S(=O)(=O)Nc2ccc3nc[nH]c3c2)cc1,-,H37Rv,-,-,MIC,-,-,50 µg/mL
CCCOc1cc2oc3cc(O)c(CCC(C)C)c(O)c3c(=O)c2c(CCC(C)C)c1OC,resazurin,M21,-,-,MIC,MDR,-,6.25 µg/mL
O=c1cc[nH]cc1[N+](=O)[O-],-,H37Rv,-,-,MIC,-,-,>100 µg/mL
NNC(=O)CCC(NC(=O)OCc1ccccc1)C(=O)NN,BACTEC,H37Rv,-,12.5 µg/mL,inhibition,-,-,85%
COc1cc2oc3cc(O)c(CCC(C)C)c(O)c3c(=O)c2c(CCC(C)C)c1OC,resazurin,M-3,-,-,MIC,-,-,0.78 µg/mL
CCCCCCCCCCCNCCNCCc1ccc(O)cc1,-,-,-,-,MIC,-,-,25 µM
CCOc1ccccc1NC(C)=O,-,H37Rv,-,-,MIC,-,-,25 µg/mL
CO[C@H]1/C=C/O[C@@]2(C)Oc3c(C)c(O)c4c(O)c(c5c(c4c3C2=O)NC2(CCN(CC(C)C)CC2)N=5)=NC(=O)/C(C)=C\C=C\[C@H](C)[C@H](O)[C@@H](C)[C@@H](O)[C@@H](C)[C@H](OC(C)=O)[C@@H]1C,-,11 (rifampicin-susceptible),-,-,MIC,-,-,≤0.062 µg/mL
O=S1(=O)CC=CC1,-,H37Rv,-,-,MIC,-,-,100 µg/mL
O=C(NNC(=S)Nc1ccc(S(=O)(=O)N2CCCCC2)cc1)c1ccncc1,resazurin,H37Rv,-,-,MIC bound,-,-,<6.25 µg/mL
CN(C)CC1(C)CCc2ccc3ccccc3c2C1O.Cl,-,H37Rv,-,-,MIC,-,-,>100 µg/mL
CC(=O)Nc1ccc(OCC(=O)NN2C(=O)C(C)SC2c2ccco2)cc1,-,H37Rv,-,12.5 µg/mL,inhibition,-,-,0%
NC(=O)c1cnccn1,-,M4597/NIACIN+,-,-,MIC,-,-,64 µg/mL
C=CCOc1cc2oc3cc(O)c(CCC(C)C)c(O)c3c(=O)c2c(CCC(C)C)c1OC,resazurin,M5,-,-,MIC,-,-,3.12 µg/mL
O=c1oc2ccc3ccccc3c2c(O)c1N=Nc1ccccc1,resazurin,H37Rv,-,-,MIC,-,-,<6.25 µg/mL
CO[C@H]1/C=C/O[C@@]2(C)Oc3c(C)c(O)c4c(=O)c(c5oc6cc(N7CCN(CC(C)C)CC7)cc(=O)c6nc5c4c3=C2O)NC(=O)/C(C)=C\C=C\[C@H](C)[C@H](O)[C@@H](C)[C@@H](O)[C@@H](C)[C@H](OC(C)=O)[C@@H]1C,-,Watanabe,inside macrophages,5 µg/mL,inhibition,-,-,31.1%
CC1(C)[C@@H]2CC[C@@]1(C)[C@@H](NCCNC1CCCCCCC1)C2,-,-,-,-,MIC,-,-,12.5 µM
C[C@H]1O[C@@H](c2ccc3c(c2O)C(=O)C2=C(C3=O)[C@@]3(O)C(=O)C[C@](C)(O)C[C@@]3(O)C=C2)C[C@@H](O)[C@@H]1O,BACTEC,H37Rv,-,-,MIC bound,-,-,>12.5 µg/mL
CC(=O)NC[C@H]1CN(c2ccc(N3CCOCC3)c(F)c2)C(=O)O1,-,7S,-,-,MIC,-,-,0.5 µg/mL
COC(=O)c1nc[nH]c1C(=O)OC,-,H37Rv,-,-,MIC,-,-,>100 µg/mL
Cc1cccc2oc3c(CC(=O)O)cccc3c(=O)c12,BACTEC,H37Rv,-,-,MIC bound,-,-,>12.5 µg/mL
CO[C@H]1/C=C/O[C@@]2(C)Oc3c(C)c(O)c4c(O)c(c5c(c4c3C2=O)NC2(CCN(CC(C)C)CC2)N=5)=NC(=O)/C(C)=C\C=C\[C@H](C)[C@H](O)[C@@H](C)[C@@H](O)[C@@H](C)[C@H](OC(C)=O)[C@@H]1C,-,CSU15,-,-,MIC,-,-,≤0.125 µg/mL
COc1cc(O)c(C(C)=O)c2c1C=CC(C)(C)O2,BACTEC,H37Rv,-,-,MIC bound,-,-,>12.5 µg/mL
NNC(=O)c1ccncc1,-,CSU20,-,-,MIC,-,-,≤0.125 µg/mL
COc1c(O)cc2oc3cc(O)c(CCC(C)C)c(O)c3c(=O)c2c1CCC(C)C,resazurin,M27,-,-,MIC,MDR,-,3.12 µg/mL
COC(=O)/C=C(C)/C=C/c1cc(C(C)=O)c(C)o1,BACTEC,H37Rv,-,12.5 µg/mL,inhibition,-,-,1%
CC(=O)Nc1ccc(C(=O)O)c(O)c1,-,H37Rv,-,-,MIC,-,-,>100 µg/mL
c1ccc(NCCNCCNC2CCCCCCC2)cc1,-,-,-,-,MIC,-,-,50 µM
O=C(O)c1cc(Cl)sc1Cl,-,H37Rv,-,-,MIC,-,-,100 µg/mL
CCCCC(CC)CN1CN(CC(CC)CCCC)CC(C)(NCCNCCO)C1,-,-,-,-,MIC,-,-,12.5 µM
Cc1csc(N=Nc2ccc(N(C)C)cc2)[n+]1[O-],-,H37Rv,-,-,MIC,-,VERO,6.25 µg/mL
C[C@@H]1CN(c2c(F)c(N)c3c(=O)c(C(=O)O)cn(C4CC4)c3c2F)C[C@H](C)N1,-,S-2M (susceptible),-,-,MIC,-,-,0.2 µg/mL
C[C@H]1COc2c(N3CCN(C)CC3)c(F)cc3c(=O)c(C(=O)O)cn1c23,-,6R,-,-,MIC,-,-,0.5 µg/mL
NC(=S)NN=C1CCC(=NNC(N)=S)CC1,BACTEC,H37Rv,-,12.5 µg/mL,inhibition,-,-,70%
NNC(=O)c1ccncc1,-,PR410,-,-,MIC,-,-,1.25 µg/mL
CC(C)=CCc1c(O)c2c(O)c3c(CC=C(C)C)/c(=C(/C)O)c(=O)cc3oc2cc1=O,resazurin,H37Ra,-,-,MIC,-,-,6.25 µg/mL
O=c1oc2cc(O)ccc2c2oc3cc(O)ccc3c12,BACTEC,H37Rv,-,-,MIC,-,-,≥128 µg/mL
Cc1cccc(N=Nc2c(O)c3cc(-c4ccccc4)ccc3oc2=O)c1,resazurin,H37Rv,-,6.25 µg/mL,inhibition,-,-,23%
O=C(O)CC(C(=O)O)S(=O)(=O)[O-].[K+],-,H37Rv,-,-,MIC,-,-,>100 µg/mL
CCCCC(CC)CN1CN(CC(CC)CCCC)CC(C)(NCCNCc2ccccc2F)C1,-,-,-,-,MIC,-,-,12.5 µM
NNC(=O)c1ccncc1,resazurin,M8,-,-,MIC,-,-,>2 µg/mL
Nc1ccc2c(c1Br)C(=O)c1ccccc1C2=O,-,H37Rv,-,-,MIC,-,-,>100 µg/mL
NNC(=O)c1ccncc1,-,S-6M (susceptible),-,-,MIC,-,-,0.025 µg/mL
NNC(=O)c1ccncc1,-,Isolate J,-,-,MIC,-,-,0.062 µg/mL
C[n+]1ccc(Nc2ccc(NC(=O)c3ccc(Nc4cc[n+](C)c5ccc([N+](=O)[O-])cc45)cc3[N+](=O)[O-])cc2)cc1,BACTEC,H37Rv,-,12.5 µg/mL,inhibition,-,-,100%
Nc1ccc2[nH]ncc2c1,-,H37Rv,-,-,MIC,-,-,>100 µg/mL
CC(C)CC(C)NCCNCc1ccccc1F,-,-,-,-,MIC,-,-,50 µM
NC(=O)n1ncc(Cl)c(Cl)c1=O,BACTEC,H37Rv,-,-,MIC bound,-,-,>12.5 µg/mL
CC(=O)Nc1ccc(OCC(=O)NN2C(=O)CSC2/C=C/c2ccccc2)cc1,-,H37Rv,-,12.5 µg/mL,inhibition,-,-,0%
O=C(N=Nc1c(Cl)c(O)c2ccccc2c1O)C(=O)Nc1ccc(Cl)c([N+](=O)[O-])c1,BACTEC,H37Rv,-,-,MIC bound,-,-,>12.5 µg/mL
Cc1cccc(N=Nc2c(O)c3c(ccc4ccccc43)oc2=O)c1C,resazurin,H37Rv,-,6.25 µg/mL,inhibition,-,-,64%
O=C(Cc1nc2ccccc2nc1-c1ccccc1)c1ccccc1,-,H37Rv,-,-,MIC,-,-,>100 µg/mL
O=[N+]([O-])c1cn2c(n1)OC[C@@H](OCc1ccc(-c3ccc(Oc4ccc(OC(F)(F)F)cc4)cc3)cc1)C2,resazurin,-,-,-,MIC90,-,-,0.045 µM
CCOc1cc2oc3cc(O)c(CC=C(C)C)c(O)c3c(=O)c2c(CC=C(C)C)c1C(C)=O,resazurin,H37Ra,-,-,MIC,-,-,6.25 µg/mL
Cc1cc(-c2cc3c(cc2F)c(=O)c(C(=O)O)cn3C2CC2)cc(C)n1,-,3105-5,-,-,MIC,-,-,4 µg/mL
O=c1[nH]c2ccc(Cl)cc2c(O)c1N=Nc1ccc(Cl)cc1,resazurin,H37Rv,-,6.25 µg/mL,inhibition,-,-,98%
CC(=O)Oc1ccccc1C(=O)Nc1ncc([N+](=O)[O-])s1,visual reading,T spoligotype 53,-,-,MIC,-,-,17.3 µg/mL
COc1ccc(CCNCCNCCCN2CCCC2=O)cc1,-,-,-,-,MIC,-,-,25 µM
O=[N+]([O-])c1cn2c(n1)OC[C@@H](OCc1ccc(S(=O)(=O)NCc3ccc(OC(F)(F)F)cc3)cc1)C2,resazurin,-,-,-,MIC90,-,-,0.9 µM
CCOc1ccc2nc(N=NC(C(C)=O)C(C)=O)sc2c1,resazurin,H37Rv,-,6.25 µg/mL,inhibition,-,-,10%
Nc1cc([N+](=O)[O-])ccc1C(=O)O,-,H37Rv,-,-,MIC,-,-,100 µg/mL
CC(=O)Nc1ccc(OCC(=O)NN2C(=O)CSC2c2ccc(N(C)C)cc2)cc1,-,H37Rv,-,-,EC50,-,-,>12.5 µg/mL
Clc1ccc(CCNCCNCCc2ccccc2Cl)c(Cl)c1,-,-,-,-,MIC,-,-,50 µM
C[C@@H]1CN(c2c(F)c(N)c3c(=O)c(C(=O)O)cn(C4CC4)c3c2F)C[C@H](C)N1,-,CSU22,-,-,MIC,-,-,≤0.125 µg/mL
CCN(CC)CCSc1ccc2ccccc2n1.Cl,-,H37Rv,-,-,MIC,-,-,100 µg/mL
Fc1ccc(CNCCN(Cc2ccccc2)Cc2ccccc2)cc1,-,-,-,-,MIC,-,-,25 µM
O=[N+]([O-])c1cn2c(n1)OC[C@@H](OCc1ccnc(N3CCN(c4ccc(OC(F)(F)F)cc4)CC3)c1)C2,resazurin,-,-,-,MIC90,-,-,0.17 µM
CC(=O)Nc1ccc(OCC(=O)N/N=C/C=C/c2ccccc2)cc1,-,H37Rv,-,-,EC50,-,-,>12.5 µg/mL
CO[C@H]1/C=C/O[C@@]2(C)Oc3c(C)c(O)c4c(O)c(c(/C=N/N5CCN(C6CCCC6)CC5)c(O)c4c3C2=O)NC(=O)/C(C)=C\C=C\[C@H](C)[C@H](O)[C@@H](C)[C@@H](O)[C@@H](C)[C@H](O)[C@@H]1C,-,Isolate 900241 drug-susceptible,-,-,MIC,-,-,0.25 µg/mL
CC(C)CCC[C@@H](C)[C@H]1CC[C@H]2[C@@H]3CC[C@H]4C[C@@H](CCC=C(c5cc(Cl)c(O)c(C(=O)O)c5)c5cc(Cl)c(O)c(C(=O)O)c5)CC[C@]4(C)[C@H]3CC[C@]12C,BACTEC,H37Rv,-,12.5 µg/mL,inhibition,-,-,12%
c1ccc([C@H]2C[C@@H]2NCCNC23CC4CC(CC(C4)C2)C3)cc1,-,-,-,-,MIC,-,-,25 µM
c1ccc(OP(Oc2ccccc2)Oc2ccccc2)cc1,-,H37Rv,-,-,MIC,-,-,>100 µg/mL
CCC1CN2CCc3cc(OC)c(OC)cc3C2CC1CC1c2cc(OC)c(OC)cc2CCN1C(=O)C1CCCN1C(=O)OCc1ccccc1,BACTEC,H37Rv,-,-,MIC,-,-,≥12.5 µg/mL
O=[N+]([O-])c1cn2c(n1)OC[C@@H](OCc1ccc(Cc3ccc(F)cc3)cc1)C2,resazurin,-,-,-,MIC90,-,-,0.06 µM
CCCCC(CC)CN1CN(CC(CC)CCCC)CC(C)(NCCNC2CCCC2)C1,-,-,-,-,MIC,-,-,25 µM
Cc1cc(O)ccc1C1(c2ccc(O)cc2C)OS(=O)(=O)c2ccccc21,BACTEC,H37Rv,-,-,MIC bound,-,-,>12.5 µg/mL
O=C(CO)NCCO,-,H37Rv,-,-,MIC,-,-,>100 µg/mL
CC(=O)NC[C@H]1CN(c2ccc(N3CCOCC3)c(F)c2)C(=O)O1,resazurin,Clinical isolate BRF 14,-,-,MIC,INH resistant,-,0.25 µg/mL
Oc1ccc(CCNCCNCc2ccco2)cc1,-,-,-,-,MIC,-,-,50 µM
O=[N+]([O-])c1cn2c(n1)OC[C@@H](OCc1ccc(C#Cc3ccc(C(F)(F)F)cc3)nc1)C2,low oxygen,-,-,-,MIC90,-,-,2.5 µM
CC(C)(C)C1=CC(=O)C(Cl)(C(C)(C)C)C(Cl)C1=O,BACTEC,H37Rv,-,-,MIC bound,-,-,≤128 µg/mL
CCOc1cc2oc3cc(O)c(CCC(C)C)c(O)c3c(=O)c2c(CCC(C)C)c1OC,resazurin,M8,-,-,MIC,-,-,3.12 µg/mL
O=[N+]([O-])c1cc(C(F)(F)F)ccc1S(=O)(=O)NC1CCCCC1NS(=O)(=O)c1ccc(C(F)(F)F)cc1[N+](=O)[O-],resazurin,H37Rv,-,-,MIC bound,-,-,>6.25 µg/mL
CCCCCC(C)NCCNCCCCc1ccccc1,-,-,-,-,MIC,-,-,25 µM
Cc1nc(Nc2ccccc2)sc1C(=O)CC(=O)C(=O)NC1C2CC3CC(C2)CC1C3,BACTEC,H37Rv,-,6.25 µg/mL,inhibition,-,-,14%
NC(N)=Nc1ccc(C(=O)O)cc1,-,H37Rv,-,-,MIC,-,-,>100 µg/mL